Where two headings read alike, the source gives them in different places.
Assays:
[1] = molecular target: SARS-COV-2 RBD extracellular domain expressed with a C-terminal myc-myc-hexahistidine (SARS-COV-2 RBD-MMH) (SARS-CoV-2); assay: SPR
[2] = molecular target: SARS-COV-2 RBD extracellular domain expressed with a C-terminal myc-myc-hexahistidine (SARS-COV-2 RBD-MMH) (SARS-CoV-2); assay: SPR; remark: listed apart in the source
[3] = molecular target: T1, VLPs expressing VSV only (negative binding control) (vesicular stomatitis virus); assay: MSD electrochemiluminescence, control VLPs on plate, mAb […], expt 1
[4] = molecular target: T1, VLPs expressing VSV only (negative …); assay: MSD electrochemiluminescence, control VLPs on plate, mAb 5.5 nM, expt 1
[5] = molecular target: SARS-CoV-2 RBD extracellular domain expressed with a C-terminal mouse IgG2a (SARS-COV-2 RBD-mFc) (SARS-CoV-2)
[6] = molecular target: SARS-COV-2 RBD extracellular domain expressed with a C-terminal mouse IgG2a (SARS-COV-2 RBD-mFc) (SARS-CoV-2); assay: SPR
[7] = molecular target: T1, VLPs expressing VSV only (negative …); assay: MSD electrochemiluminescence, control VLPs on plate, mAb […], expt 2
[8] = molecular target: T1, VLPs expressing VSV only (negative …); assay: MSD electrochemiluminescence, control VLPs on plate, mAb 5.5 nM, expt 2
[9] = molecular target: Bt-SARS-CoV-2 Spike Protein (RBD)(R319-F541).hFc (SARS-CoV-2); assay: Luminex bead assay, antibody supernatant, biotinylated antigen on microspheres

B1: mAb11004 (antibody, V domains shown)
VH: QVQLVESGGGVVQPGRSLRLSCVASGFTFSIYGMDWVRQAPGKGLEWVAVISYDGSNKYYADSVKGRFTISRDNSKNTLYLQMNSLRPEDTAVYYCAKDREAAADAFDIWGQGTMVTVSS
VL: DIQMTQSPSSVSASVGDRVTITCRASQGISSWLAWYQQKPGKAPKLLIYAASSLHSGVPSRFSGSGSGTDFTLTISSLQPEDFATYYCQQANSFRLTFGGGTKVEIKR
[1]
  t½: 3.6 min

B2: mAb11004 (antibody, V domains shown)
VH: QVQLVESGGGVVQPGRSLRLSCVASGFTFSIYGMDWVRQAPGKGLEWVAVISYDGSNKYYADSVKGRFTISRDNSKNTLYLQMNSLRPEDTAVYYCAKDREAAADAFDIWGQGTMVTVSS
VL: DIQMTQSPSSVSASVGDRVTITCRASQGISSWLAWYQQKPGKAPKLLIYAASSLHSGVPSRFSGSGSGTDFTLTISSLQPEDFATYYCQQANSFRLTFGGGTKVEIKR
[2]
  t½: 7.8 min

B3: mAb10932 (antibody, V domains shown)
VH: EVQLVESGGGLVQSGGSLRLSCAASGLTVSSNYMSWVRQAPGKGLEWVSVIYSGGSTFYSDSVKGRFTISRHNSKNTLYLQMNSLRAEDTAVYYCARARGDAFDIWGQGTMVTVSS
VL: DIQMTQSPSSLSASVGDRVTITCQASQGISNYLNWYQQKPGKAPKLLISDASNLETGVPSRFSGSGSGTDFTFTISSLQPEDIATYYCQQYDNLRFFTFGPGTKVDIKR
[3]
  Antibody Binding Signal (RLU): 35 RLU
[4]
  Antibody Binding Signal (RLU): 105 RLU

B4: mAb10922 (antibody, V domains shown)
VH: EVQLVESGGGLVQPGGSLRLSCAASGFTFSIYEMNWVRQAPGKGLEWVSYITSSGTTIYYADSVKGRFTISRDNAKNSLYLQMNSLRAEDTAVYYCASSSSSGYYFDYWGQGTLVTVSS
VL: not shown
[5]
  koff: 2.42e-05 s⁻¹
  kon: 719000 M⁻¹ s⁻¹
  t½: 478 min

B5: mAb10922 (antibody, V domains shown)
VH: EVQLVESGGGLVQPGGSLRLSCAASGFTFSIYEMNWVRQAPGKGLEWVSYITSSGTTIYYADSVKGRFTISRDNAKNSLYLQMNSLRAEDTAVYYCASSSSSGYYFDYWGQGTLVTVSS
VL: not shown
[6]
  koff: 5.64e-05 s⁻¹
  kon: 3.2e+06 M⁻¹ s⁻¹
  t½ (dissociative half-life): 205 min

B6: mAb10922 (antibody, V domains shown)
VH: EVQLVESGGGLVQPGGSLRLSCAASGFTFSIYEMNWVRQAPGKGLEWVSYITSSGTTIYYADSVKGRFTISRDNAKNSLYLQMNSLRAEDTAVYYCASSSSSGYYFDYWGQGTLVTVSS
VL: not shown
[7]
  Antibody Binding Signal (RLU): 39 RLU
[8]
  Antibody Binding Signal (RLU): 129 RLU

B7: mAb11006 (antibody, V domains shown)
VH: EVQLVESGGGLVQPGGSLRLSCAASGFIVSRNYMSWVRQAPGKGLEWVSVIYSGGSTFYADSVKGRFTISRHNSKNTLYLQMNSLKAEDTAVYYCARELRGYFDYWGQGTLVTVSS
VL: DIQLTQSPSFLSASVGDRVTITCWASQGISSYLAWYQQKPGKAPKLLIYAASTLQSGVPSRFSGSGSGTEFTLTISSLQPEDFATYYCQLLNSYPYTFGQGTKLEIKR
[1]
  t½: 26.3 min

B8: mAb10914 (antibody, V domains shown)
VH: EVQLVESGGGLVQPGGSLRLSCAASGLIVSRNYMIWVRQAPGKGLEWVSVIYSGGSTFYADSVKGRFTISRHNSKNTLYLQMNSLRAEDTAVYYCARDLGTGGMDVWGQGTTVTVSS
VL: DIQLTQSPSFLSASVGDRVTITCWASQGISSYLAWYQQKPGKAPKLLIYAASTLQSGVPSRFSGSGSGTEFTLTISSLQPEDFATYYCQQLNSYPLTFGGGTKVEIKR
[3]
  Antibody Binding Signal (RLU): 85 RLU
[4]
  Antibody Binding Signal (RLU): 1820 RLU

B9: mAb11008 (antibody, V domains shown)
VH: EVQLVESGGGLVQPGGSLRLSCAASGFTVSSNYMTWVRQAPGKGLEWVSVIYSGGSTFYADSVKGRFTISRHNSENTLYLQMNSLRAEDTAVYYCARDLAAAGTDYWGQGALVTVSS
VL: DIQLTQSPSFLSASVGDRVTITCWASQGISSYLAWYQQKPGKAPKLLIYAASTLQSGVPSRFSGSGSGTEFTLTISSLQPDDFATYYCQHLNSYLYTFGQGTKLEIKR
[2]
  t½: 7.6 min

B10: mAb11008 (antibody, V domains shown)
VH: EVQLVESGGGLVQPGGSLRLSCAASGFTVSSNYMTWVRQAPGKGLEWVSVIYSGGSTFYADSVKGRFTISRHNSENTLYLQMNSLRAEDTAVYYCARDLAAAGTDYWGQGALVTVSS
VL: DIQLTQSPSFLSASVGDRVTITCWASQGISSYLAWYQQKPGKAPKLLIYAASTLQSGVPSRFSGSGSGTEFTLTISSLQPDDFATYYCQHLNSYLYTFGQGTKLEIKR
[1]
  t½: 3.5 min

B11: mAb10937 (antibody, V domains shown)
VH: QITLKESGPTLVKPTQTLTLTCTFSGFSLSTNVVGVGWIRQPPGKALEWLALIYWNDDKRYSPSLKSRLTITKDTSKNQVVLTMTNMDPVDTATYYCAHGPTGDYFDYWGQGTLVTVSS
VL: not shown
[3]
  Antibody Binding Signal (RLU): 43 RLU
[4]
  Antibody Binding Signal (RLU): 204 RLU

B12: mAb10985 (antibody, V domains shown)
VH: EVQLVESGGGLVQPGRSLRLSCAASGFTFDDYAMHWVRQAPGKGLEWVSGISWNRGSIGYADSVKGRFTISRDNAKNSLYLQMSSLRAEDTALYYCAKDGERWDSVVVPSARNGMDVWGQGTTVTVSS
VL: QSVLTQPPSVSGAPGQRVTISCTGSSSNIGAGYDVHWYQQLPGTAPKLLIYGNSNRPSGVPDRFSGSKSGTSASLAITGLQAEDEADYYCQSYDSSLSGSYVFGTGTKVTVLG
[1]
  t½: 7.5 min

B13: mAb10985 (antibody, V domains shown)
VH: EVQLVESGGGLVQPGRSLRLSCAASGFTFDDYAMHWVRQAPGKGLEWVSGISWNRGSIGYADSVKGRFTISRDNAKNSLYLQMSSLRAEDTALYYCAKDGERWDSVVVPSARNGMDVWGQGTTVTVSS
VL: QSVLTQPPSVSGAPGQRVTISCTGSSSNIGAGYDVHWYQQLPGTAPKLLIYGNSNRPSGVPDRFSGSKSGTSASLAITGLQAEDEADYYCQSYDSSLSGSYVFGTGTKVTVLG
[2]
  t½: 2.7 min

B14: mAb10938 (antibody, V domains shown)
VH: EVQLVESGGGLVQPGGSLRLSCAVSGFTVSSNYMSWVRQAPGKGLEWVSLIYSGGSTFYADSVKGRFTISRHNSKNTLYLQMNSLRAEDTAVYYCAREGGYSYDYNYWGQGTLVTVSS
VL: DIQMTQSPSSLSASVGDRVTITCQASQDIRNYLNWYQQKPGKAPKLLIYDASNLETGVPSRFSGIGSGTDFTFTISSLQPEDIATYYCQQYDNLPITFGQGTRLEIKR
[3]
  Antibody Binding Signal (RLU): 37 RLU
[4]
  Antibody Binding Signal (RLU): 395 RLU

B15: mAb10966 (antibody, V domains shown)
VH: EVQLVESGGGLVQPGGSLRLSCAASGLTVSSNYMSWVRQAPGKGLEWVSVIYSGGSTFYADSVKGRFTISRDNSKNTLYLQMNSLRPEDTAVYYCAREGRIAATGYGMDVWGQGTTVTVSS
VL: DIQMTQSPSSLSASVGDRVTITCQASQDISNYLNWYQQKPGKAPKLLIYDASNLGTGVPSRFSGSRSGTDFTFTISSLQPEDIATYYCHQYDNLPQTFGPGTKVDIKR
[7]
  Antibody Binding Signal (RLU): 88 RLU
[8]
  Antibody Binding Signal (RLU): 97 RLU

B16: mAb10956 (antibody, V domains shown)
VH: EVQLVESGGGLVQPGGSLRLSCAASGLTVSSNYMSWVRQAPGKGLEWVSVIYSGGSTFYADSVKGRFTISRDNSKNTLYLQMNSLRAEDTAVYYCARDLIKYGMDVWGQGTTVTVSS
VL: DIQMTQSPSSLSASVGDRVTITCQASQDISNYLNWYQQKPGKAPKLLIYDASNLETGVPSRFSGSGSGTDFTFTISSLQPEDIATYYCQQYDNLPPHFGPGTKVDIKR
[7]
  Antibody Binding Signal (RLU): 71 RLU
[8]
  Antibody Binding Signal (RLU): 373 RLU

B17: mAb10984 (antibody, V domains shown)
VH: EVQLVESGGGLVQPGGSLRLSCAASGLTVNRNYMSWVRQAPGKGLEWVSLIYSGGSTYYADSVKGRFTISRDNSKNTLYLQMNSLRLEDTAVYYCARGELGIPYGMDVWGQGTTVTVSS
VL: QSVLTQPPSVSAAPGQKVTISCSGSSSNIGNNYVSWYQQLPGTAPKLLIYDNNKRPSGIPDRFSGSKSGTSATLGITGLQTGDEADYYCGTWDSSLSAGVFGGGTKLTVLG
[9]
  Binding signal (MFI): 22500 MFI

B18: mAb10930 (antibody, V domains shown)
VH: EVQLVESGGGLVQPGRSLRLSCAASGFTFDDYAMYWVRQAPGKGLEWVSGISWNSGSIGYADSVKGRFTISRDNAKNSLYLQMNSLRAADTALYYCAKDKDWNSRGYYYYGMDVWGQGTTVTVSS
VL: not shown
[7]
  Antibody Binding Signal (RLU): 38 RLU
[8]
  Antibody Binding Signal (RLU): 291 RLU

B19: mAb10930 (antibody, V domains shown)
VH: EVQLVESGGGLVQPGRSLRLSCAASGFTFDDYAMYWVRQAPGKGLEWVSGISWNSGSIGYADSVKGRFTISRDNAKNSLYLQMNSLRAADTALYYCAKDKDWNSRGYYYYGMDVWGQGTTVTVSS
VL: not shown
[9]
  Binding signal (MFI): 25900 MFI

Source: patent US20220356230A1 (published 2022)
